Measured values taken from article PMC5571939, “The nature of the Syntaxin4 C-terminus affects Munc18c-supported SNARE assembly” (PLoS ONE, 2017).

Tests used:
Sx4_(1-275)-His = target: T1, Sx4_(1-275)-His (rat, UniProt Q08850 1-275, C141S); assay: pull-down; Sx4-His proteins immobilised by C-terminal His6 on Co2+ resin, pre-complexed with de-tagged Munc18c or without it (controls); GST-cleaved SNAP23 and VAMP2 (40 μg) added together, overnight, 4°C; SDS-PAGE, Coomassie; conditions: both partners purified
T1 construct: also called Syntaxin4 soluble cytoplasmic domain with C-terminal His6; source: E. coli, purified as described previously [17, 28]; not shown: His6, C-terminal, kept
T1 sequence (looked up): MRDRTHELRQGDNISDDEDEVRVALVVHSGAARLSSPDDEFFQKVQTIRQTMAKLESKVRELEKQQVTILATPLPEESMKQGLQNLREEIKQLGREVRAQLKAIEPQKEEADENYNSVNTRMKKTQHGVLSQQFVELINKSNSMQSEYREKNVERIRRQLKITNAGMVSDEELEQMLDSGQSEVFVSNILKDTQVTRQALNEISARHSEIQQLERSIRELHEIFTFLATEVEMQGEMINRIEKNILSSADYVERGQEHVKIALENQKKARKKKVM

[1] = target: T2, Munc18c:Sx4_(1-275)-His pre-formed complex (rat | mouse, UniProt Q08850 1-275; Q60770 1-592, C141S); assay: as above; conditions: both partners purified
T2 construct: as m1; Munc18c (Munc18-3), mouse; as m10; m1 immobilised by its C-terminal His6 and complexed with m10 before SNAP23 and VAMP2 were added; also called Munc18c/Sx4-His; source: formed on TALON Co2+ beads from purified E. coli proteins; not shown: His6, C-terminal, kept; His6, N-terminal, cleaved
T2 sequence (looked up) 1: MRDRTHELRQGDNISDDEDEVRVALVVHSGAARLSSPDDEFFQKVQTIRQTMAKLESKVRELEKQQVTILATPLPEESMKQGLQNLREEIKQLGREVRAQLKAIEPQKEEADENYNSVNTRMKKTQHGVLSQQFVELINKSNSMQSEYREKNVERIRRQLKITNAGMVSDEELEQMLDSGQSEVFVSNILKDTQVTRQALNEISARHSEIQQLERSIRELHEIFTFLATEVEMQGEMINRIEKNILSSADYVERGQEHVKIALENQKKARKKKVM
T2 sequence (looked up) 2: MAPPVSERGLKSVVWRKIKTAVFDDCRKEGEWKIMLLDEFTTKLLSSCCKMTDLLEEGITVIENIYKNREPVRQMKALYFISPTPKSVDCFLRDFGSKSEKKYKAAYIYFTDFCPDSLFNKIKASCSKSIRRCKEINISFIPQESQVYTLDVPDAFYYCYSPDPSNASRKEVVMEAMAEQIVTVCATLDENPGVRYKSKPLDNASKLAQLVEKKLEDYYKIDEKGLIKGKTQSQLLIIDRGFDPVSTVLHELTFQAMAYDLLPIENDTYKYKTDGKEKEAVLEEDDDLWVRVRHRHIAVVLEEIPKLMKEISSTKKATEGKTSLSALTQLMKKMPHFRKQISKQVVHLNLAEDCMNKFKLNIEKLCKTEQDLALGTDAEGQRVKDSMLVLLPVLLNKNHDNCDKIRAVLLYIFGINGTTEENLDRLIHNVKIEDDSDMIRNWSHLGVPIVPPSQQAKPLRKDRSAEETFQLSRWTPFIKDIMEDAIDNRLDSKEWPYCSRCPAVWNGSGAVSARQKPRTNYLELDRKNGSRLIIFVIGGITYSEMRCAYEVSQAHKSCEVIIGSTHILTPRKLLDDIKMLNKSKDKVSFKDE

B1: VAMP2 (GST-cleaved) (domain or fragment)
chain: not shown
notes: VAMP2, rat, […]; also called synaptobrevin; source: purified (GSH-agarose, thrombin cleavage, MonoS cation exchange)
binding result (Sx4_(1-275)-His): binds | binding result [1]: binds
